PubChem BioAssay AID504761 | Drosophila RNAi Screening Center – 2011

Purpose: 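Insect host genes that dengue virus relies on to spread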 (primary screen)
Cells: D.Mel-2 cells from Drosophila
Reagents: long dsRNA against Drosophila genes
Treatment: infection with dengue virus type 2; dose and infection time not stated
Read-out: 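Per well on two replicate plates, imaging gave the percent of cells positive for viral envelope protein, ranked by infection, and a nuclear count of cells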
Direction: infection score: higher = more virus-infected cells; cell count: higher = more cells in the well
Hit rule: 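Very low infection ranking in both replicate wells (chance probability at most 0.065), then a retest showing infection dropped 1.5-fold or more at p below 0.05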
Meaning of the calls: active = confirmed: knock-down lowers infection; inactive = not picked or not confirmed
The deposit covers about 22,000 reagents; below is an unselected part of those that have a named target and a result. Of all reagents, 116 (0.52%) are marked active. 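Calls depend on retest data that are not deposited; infection was ranked per plate without normalising between plates; the unit of the infection score is not given.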 Raw values vary from plate to plate and are shown uncorrected. Reagents against one gene are numbered here. Names joined by + are all predicted targets of the reagent. Not all columns of the deposit are shown. The record does not give: the amount of reagent, the time to read-out.

infection score, replicate 1 | infection score, replicate 2 | cell count, replicate 1 | activity call | target | reagent
6.5 | 10.6 | 6909 | inactive | CG8323 | 1
1.06 | 0.72 | 6819 | active | Sos | 1
0.69 | 5.39 | 5470 | inactive | Sos | 2
7.05 | 5.99 | 6252 | inactive | CG17325 + CG42305 | 1
9.11 | 12.4 | 6147 | inactive | GstE14 | 1
1 | 8.79 | 6681 | inactive | GstE14 | 2
4.73 | 5.71 | 1415 | inactive | Jon99Ci | 1
28.6 | 3.72 | 5026 | inactive | Jon99Ci | 2
0.06 | 0.45 | 6456 | inactive | unc-13 | 1
0.46 | 2.18 | 6122 | inactive | unc-13 | 2
9.15 | 8.38 | 6370 | inactive | unc-13 | 3
2.22 | 2.74 | 6496 | inactive | Asator | 1
12 | 2.59 | 6108 | inactive | CG15153 | 1
8.4 | 6.01 | 6311 | inactive | CG15153 | 2
5.85 | 22.4 | 5644 | inactive | CG17404 | 1
8.23 | 5.75 | 6934 | inactive | CG1662 | 1
9.1 | 12 | 2318 | inactive | CG6277 | 1
27.6 | 31.6 | 5559 | inactive | CG6277 | 2
3.8 | 1.46 | 6292 | inactive | CG31321 | 1
9.86 | 7.28 | 6734 | inactive | CG31321 | 2
6.65 | 3.93 | 5172 | inactive | Roc1a | 1
8.15 | 2.11 | 5802 | inactive | ana1 | 1
4.82 | 0.91 | 6529 | inactive | ana1 | 2
6.04 | 8.77 | 6474 | inactive | ana1 | 3
17.1 | 1.46 | 5907 | inactive | Dhc16F | 1
7.83 | 15.3 | 6196 | inactive | Kr | 1
1.27 | 2.9 | 5372 | inactive | CG31510 | 1
3.83 | 16.5 | 6000 | inactive | Su(dx) | 1
13.5 | 2.27 | 3894 | inactive | Su(dx) | 2
8.7 | 6.41 | 6529 | inactive | E(z) | 1
15 | 13.5 | 2956 | inactive | E(z) | 2
0.56 | 2.85 | 5669 | inactive | CG33500 | 1
8.18 | 9.28 | 6857 | inactive | Marf1 | 1
0.58 | 0.93 | 6258 | inactive | Marf1 | 2

Part of the list above, limited to “infection score, replicate 2”.
ana1 #3: 8.77
Dhc16F: 1.46
Kr: 15.3
CG31510: 2.9
Su(dx) #1: 16.5
Su(dx) #2: 2.27
E(z) #1: 6.41
E(z) #2: 13.5
CG33500: 2.85
Marf1 #1: 9.28

Further reagents follow.
infection score, replicate 1 | infection score, replicate 2 | cell count, replicate 1 | activity call | target | reagent
12.7 | 2.42 | 5486 | inactive | CG33090 | 1
17.3 | 9.54 | 5923 | inactive | CG33090 | 2
27.2 | 21.1 | 5988 | inactive | Mkk4 | 1
14.6 | – | 5511 | inactive | Mkk4 | 2
11.2 | 12.6 | 6515 | inactive | CG6923 | 1
– | 17.8 | 356 | inactive | CG6923 | 2
0.26 | 0.19 | 5776 | inactive | CG32189 | 1
2.52 | 21.4 | 3538 | inactive | CG32189 | 2
– | 5.94 | 368 | inactive | ci | 1
1.56 | 6.46 | 6971 | inactive | CG17272 | 1
14.1 | 3.91 | 4950 | inactive | CG9259 | 1
13.4 | 15.2 | 6406 | inactive | CG9308 | 1
9.57 | – | 4700 | inactive | CG9308 | 2
2.5 | 6.74 | 6394 | inactive | APC4 | 1
10.3 | 12.7 | 6130 | inactive | APC4 | 2
20.9 | 10.5 | 5934 | inactive | CG4036 | 1
15.1 | 5.23 | 2934 | inactive | cd | 1
28.8 | 19.4 | 5676 | inactive | KCNQ | 1
11.4 | 17.1 | 5887 | inactive | KCNQ | 2
4.95 | 3.91 | 5752 | inactive | KCNQ | 3
7.74 | 4.35 | 6421 | inactive | CG1090 | 1
4.35 | – | 5656 | inactive | CG1090 | 2
16.9 | 3.63 | 5704 | inactive | CG13958 (retired record) | 1
6.35 | 12.7 | 2017 | inactive | CG13958 (retired record) | 2
22.5 | 5.9 | 3671 | inactive | Adgf-A | 1
2.38 | 11.1 | 6216 | inactive | Adgf-A | 2
13.4 | 6.12 | 6253 | inactive | BOD1 | 1
2.56 | 8.97 | 7069 | inactive | BOD1 | 2
1.06 | 7.49 | 6044 | inactive | CG14879 | 1
27.5 | 18.6 | 5928 | inactive | CG14879 | 2
17.6 | 16.4 | 5245 | inactive | CG17085 (retired record) | 1
1.66 | 0.75 | 6862 | active | CG17085 (retired record) | 2
1.94 | 12.1 | 6701 | inactive | CG17085 (retired record) | 3
– | 7.55 | 374 | inactive | CG14331 | 1
28.3 | 18.3 | 6617 | inactive | CG7202 | 1
1.04 | 3.39 | 5950 | inactive | CG7202 | 2
5.47 | 14.2 | 3547 | inactive | ncm | 1
– | 0.57 | 265 | inactive | ncm | 2
6.34 | 2.81 | 6560 | inactive | Tob | 1
25.8 | 25.1 | 5505 | inactive | APC10 | 1
